According to patent US20250115889:

Tests used:
Test in all cases: column 'Multimer [yes/no]'; self-association
KDAK1nK-4S-AVQP = system: KDAK1nK-4S-AVQP
KDcAK1nK-4S-AVQP = system: KDcAK1nK-4S-AVQP
KKDAK1nKK = system: KKDAK1nKK

## KDAK1nK-4S-AVQP
KDAK1nK-4S-AVQP
  result: no binding

## KDcAK1nK-4S-AVQP
KDcAK1nK-4S-AVQP
  result: no binding

## KKDAK1nKK
KKDAK1nKK
  result: binds
